Results of unrelated studies side by side (data: NIAID ChemDB).

Common to all: tests on isolated targets

Rows are shuffled and stem from different studies. An empty or dashed field is not shown. a–b is a range or a potency band. Inhibition is in % at the dose shown (toxicity tests: loss of growth or viability). ICn is the concentration giving n% inhibition.

SMILES	dose	target	strain or isolate	agent	measure	result
O=C1CC(=O)OC(CCc2ccc(C(=O)N3CCOCC3)cc2)(C2CCCC2)C1		Nonstructural protein 5B		Hepatitis C virus	IC50	>50 µM
C=C[C@@H]1C[C@]1(NC(=O)[C@@H]1C[C@@H](Oc2cc(-c3ccccc3)nc3cc(OC)ccc23)CN1C(=O)[C@@H](NS(=O)(=O)c1ccc(F)cc1)C(C)(C)C)C(=O)NS(=O)(=O)C1CC1		NS3/NS4A protease	BMS	Hepatitis C virus	IC50	<0.05 µM
O=C(Nc1ccc2cn[nH]c2c1)c1cc(NCCCn2ccnc2)c(F)cc1F	1 µg/mL	Reverse transcriptase		Hepatitis B virus	inhibition	69%
FC(F)(F)c1cccc(COc2cccc(-c3cnc4c(-c5nn[nH]n5)cnn4c3C3CCCCC3)c2)c1		RNA-dependent RNA polymerase		Hepatitis C virus	IC50	1–10 µM
C=C[C@@H]1C[C@]1(NC(=O)[C@@H]1C[C@@H](Oc2cc(-c3ccccc3)nc3cc(OC)ccc23)CN1C(=O)[C@@H](NC(=O)CC1C2CC1C2)C(C)(C)C)C(=O)NS(=O)(=O)C1CC1		NS3/NS4A protease	BMS	Hepatitis C virus	IC50	<0.05 µM
C=CC1CC1(NC(=O)[C@@H]1C[C@@H](OC(=O)Nc2ccccc2CC)CN1C(=O)[C@@H](NC(=O)OC(C)(C)C)C(C)(C)C)C(=O)NS(=O)(=O)C1CC1		NS3/NS4A protease	BMS/H77C/J416S	Hepatitis C virus	IC50	0.1–1 µM
CNC(=O)C1CCN(c2nc(Nc3ccc4[nH]ncc4c3)nc(OC)n2)CC1	1 µg/mL	DNA polymerase		Hepatitis B virus	inhibition	32%
O=C(Cc1ccccc1)C1C(=O)CC(CCc2cccc(Cl)c2)(C2CCCC2)OC1=O		Nonstructural protein 5B		Hepatitis C virus	IC50	10–50 µM
CNC1N=C(OC)N=C(Nc2ccc3cn[nH]c3c2)N1CN	0.1 µg/mL	Nonstructural protein 5B		Hepatitis C virus	inhibition	19%
C=CC1CC1(NC(=O)[C@@H]1C[C@@H](OC(=O)N2CCCCC2)CN1C(=O)[C@@H](NC(=O)OC(C)(C)C)C(C)(C)C)C(=O)NS(=O)(=O)C1CC1		NS3/NS4A protease	BMS/H77C/J416S	Hepatitis C virus	IC50	0.1–1 µM
C=C[C@@H]1C[C@]1(NC(=O)[C@@H]1C[C@@H](Oc2cc(-c3ccccc3)nc3cc(OC)ccc23)CN1C(=O)[C@@H](NC(=O)OC(C)(C)C)C(C)(C)C)C(=O)NS(=O)(=O)c1ccccc1C#N		NS3/NS4A protease	BMS	Hepatitis C virus	IC50	<0.5 µM
CCOC(=O)C1CCN(c2nc(Nc3ccc4[nH]ncc4c3)nc(OC)n2)CC1	0.01 µg/mL	DNA polymerase		Hepatitis B virus	inhibition	6%
COc1cc(OC)c(CCC2(C3CCCC3)CC(O)=C(Sc3nc(N)c4cn[nH]c4n3)C(=O)O2)cc1Cl		Nonstructural protein 5B		Hepatitis C virus	IC50	<1 µM
COc1nc(NCCCN2CCOCC2)nc(Nc2ccc3[nH]ncc3c2)n1	1 µg/mL	Nonstructural protein 5B		Hepatitis C virus	inhibition	31%
CC(=O)c1ccc(CCC2(C3CCCC3)CC(=O)CC(=O)O2)cc1		Nonstructural protein 5B		Hepatitis C virus	IC50	1–10 µM
O=C(O)c1cnn2c(-c3cccc(-c4ccc(Cl)s4)c3)ccnc12		RNA-dependent RNA polymerase		Hepatitis C virus	IC50	>10 µM
C=C[C@@H]1C[C@]1(NC(=O)[C@@H]1C[C@@H](Oc2cc(-c3ccccc3)nc3cc(OC)ccc23)CN1C(=O)[C@@H](NC(=O)OC(C)(C)C)C(C)(C)C)C(=O)NS(=O)(=O)c1ccc(OC(F)(F)F)cc1		NS3/NS4A protease	BMS	Hepatitis C virus	IC50	<0.5 µM
C=CC1CC1(NC(=O)[C@@H]1C[C@@H](OC(=O)Nc2cc(C)ccc2-n2cccn2)CN1C(=O)[C@@H](NC(=O)OC(C)(C)C)C(C)(C)C)C(=O)NS(=O)(=O)C1CC1		NS3/NS4A protease	BMS/H77C/J416S	Hepatitis C virus	IC50	<0.1 µM
Cc1cccc(COc2ccc(-c3cnc4c(-c5nn[nH]n5)cnn4c3C3CCCCC3)cc2)c1		RNA-dependent RNA polymerase		Hepatitis C virus	IC50	1–10 µM
C=C[C@@H]1C[C@]1(NC(=O)[C@@H]1C[C@@H](Oc2cc(-c3ccccc3)nc3cc(OC)ccc23)CN1C(=O)[C@@H](NC(=O)OC(C)(C)C)C(C)(C)C)C(=O)NS(=O)(=O)CC1CCC1		NS3/NS4A protease	BMS	Hepatitis C virus	IC50	<0.5 µM
COc1nc(NCCCn2ccnc2)nc(Nc2ccc3[nH]ncc3c2)n1	1 µg/mL	DNA polymerase		Hepatitis B virus	inhibition	56%
CN(C)CCNc1cc(C(=O)Nc2ccc3cn[nH]c3c2)c(F)cc1F	0.01 µg/mL	Reverse transcriptase		Hepatitis B virus	inhibition	19%
Cc1cc(SC2=C(O)CC(CCc3ccc(O)cc3)(C3CCCC3)OC2=O)c(C(C)(C)C)cc1CO		Nonstructural protein 5B		Hepatitis C virus	IC50	<1 µM
C=CC1CC1(NC(=O)[C@@H]1C[C@@H](OC(=O)Nc2cc(C#N)ccc2-n2cccn2)CN1C(=O)[C@@H](NC(=O)OC(C)(C)C)C(C)(C)C)C(=O)NS(=O)(=O)C1CC1		NS3/NS4A protease	BMS/H77C/J416S	Hepatitis C virus	IC50	<0.1 µM
O=C1CC(CCc2ccccc2)(C2CCCC2)OC(=O)C1Cc1ccccc1		Nonstructural protein 5B		Hepatitis C virus	IC50	10–50 µM
COc1nc(Nc2ccc3[nH]ncc3c2)nc(N2CCC(C(N)=O)CC2)n1	0.01 µg/mL	DNA polymerase		Hepatitis B virus	inhibition	11%
C=CC1CC1(NC(=O)[C@@H]1C[C@@H](OC(=O)N[C@H](C(=O)OC)[C@@H](C)CC)CN1C(=O)[C@@H](NC(=O)OC(C)(C)C)C(C)(C)C)C(=O)NS(=O)(=O)C1CC1		NS3/NS4A protease	BMS/H77C/J416S	Hepatitis C virus	IC50	1–10 µM
C=C[C@@H]1C[C@]1(NC(=O)[C@@H]1C[C@@H](Oc2cc(-c3ccccc3)nc3cc(OC)ccc23)CN1C(=O)[C@@H](NC(=O)OC(C)(C)C)C(C)C)C(=O)NS(=O)(=O)CC1CC1		NS3/NS4A protease	BMS	Hepatitis C virus	IC50	<0.5 µM
O=C(Nc1ccc2[nH]ncc2c1)c1cc(NCCCn2ccnc2)c(F)cc1F		Reverse transcriptase		Hepatitis B virus	IC50	0.01–0.1 µg/mL
COc1cc(OC)c(CCC2(C3CCCC3)CC(O)=C(Sc3ncn[nH]3)C(=O)O2)cc1Cl		Nonstructural protein 5B		Hepatitis C virus	IC50	<1 µM
COc1nc(Nc2ccc3cn[nH]c3c2)nc(NC2CC2)n1	1 µg/mL	DNA polymerase		Hepatitis B virus	inhibition	54%
O=C(Nc1ccc2cn[nH]c2c1)c1cc(NCCO)c(F)cc1F	1 µg/mL	Reverse transcriptase		Hepatitis B virus	inhibition	53%
N#Cc1cnn2c(-c3ccc(OCc4ccccc4)cc3)c(-c3ccccc3)cnc12		RNA-dependent RNA polymerase		Hepatitis C virus	IC50	>10 µM
C=CC1CC1(NC(=O)[C@@H]1C[C@@H](OC(=O)Nc2ccccc2-n2nccn2)CN1C(=O)[C@@H](NC(=O)OC(C)(C)C)C(C)(C)C)C(=O)NS(=O)(=O)C1CC1		NS3/NS4A protease	BMS/H77C/J416S	Hepatitis C virus	IC50	<0.1 µM
C=C[C@@H]1C[C@]1(NC(=O)[C@@H]1C[C@@H](Oc2cc(-c3ccccc3)nc3cc(OC)ccc23)CN1C(=O)[C@@H](NC(=O)OC(C)(C)C)C(C)(C)C)C(=O)NS(=O)(=O)c1c(Cl)cccc1Cl		NS3/NS4A protease	BMS	Hepatitis C virus	IC50	<0.05 µM
O=C(O)c1cnn2c(-c3ccccc3)c(-c3ccc(OCc4ccccc4)cc3)cnc12		RNA-dependent RNA polymerase		Hepatitis C virus	IC50	>10 µM
C=C[C@@H]1C[C@]1(NC(=O)[C@@H]1C[C@@H](Oc2cc(-c3ccccc3)nc3cc(OC)ccc23)CN1C(=O)[C@@H](NC(=O)OC(C)(C)C)C(C)(C)C)C(=O)NS(=O)(=O)c1ccc(NC(C)=O)cc1		NS3/NS4A protease	BMS	Hepatitis C virus	IC50	<0.05 µM
COc1cccc(-c2ccccc2-c2ccnc3cc(C(=O)NC4CCCC4)nn23)c1		RNA-dependent RNA polymerase		Hepatitis C virus	IC50	>10 µM
C=CCN(CC=C)C(=O)O[C@@H]1C[C@@H](C(=O)NC2(C(=O)NS(=O)(=O)C3CC3)CC2C=C)N(C(=O)[C@@H](NC(=O)OC(C)(C)C)C(C)(C)C)C1		NS3/NS4A protease	BMS/H77C/J416S	Hepatitis C virus	IC50	0.1–1 µM
O=C(Nc1ccc2[nH]ncc2c1)c1cc(NCCc2ccccn2)c(F)cc1F	0.01 µg/mL	Reverse transcriptase		Hepatitis B virus	inhibition	7%
O=C(O)c1cc2nc(-c3ccccc3)cc(-c3ccsc3)n2n1		RNA-dependent RNA polymerase		Hepatitis C virus	IC50	>10 µM
C=CC1CC1(NC(=O)[C@@H]1C[C@@H](OC(=O)N(CCCC)CCCC)CN1C(=O)[C@@H](NC(=O)OC(C)(C)C)C(C)(C)C)C(=O)NS(=O)(=O)C1CC1		NS3/NS4A protease	BMS/H77C/J416S	Hepatitis C virus	IC50	0.1–1 µM

Repeating the final 2 entries:

O=C(O)c1cc2nc(-c3ccccc3)cc(-c3ccsc3)n2n1 ; target: RNA-dependent RNA polymerase ; agent: Hepatitis C virus ; measure: IC50 ; result: >10 µM
C=CC1CC1(NC(=O)[C@@H]1C[C@@H](OC(=O)N(CCCC)CCCC)CN1C(=O)[C@@H](NC(=O)OC(C)(C)C)C(C)(C)C)C(=O)NS(=O)(=O)C1CC1 ; target: NS3/NS4A protease ; strain or isolate: BMS/H77C/J416S ; agent: Hepatitis C virus ; measure: IC50 ; result: 0.1–1 µM